The values that follow come from US9988424 (DUKE UNIVERSITY, dated 2018).

Common to all, as to test: ELISA, OD405 at 10 ug/ml
The target in one test is T1, C.1086 gp140.
T1 construct: also called C.1086gp140C
T1 chain: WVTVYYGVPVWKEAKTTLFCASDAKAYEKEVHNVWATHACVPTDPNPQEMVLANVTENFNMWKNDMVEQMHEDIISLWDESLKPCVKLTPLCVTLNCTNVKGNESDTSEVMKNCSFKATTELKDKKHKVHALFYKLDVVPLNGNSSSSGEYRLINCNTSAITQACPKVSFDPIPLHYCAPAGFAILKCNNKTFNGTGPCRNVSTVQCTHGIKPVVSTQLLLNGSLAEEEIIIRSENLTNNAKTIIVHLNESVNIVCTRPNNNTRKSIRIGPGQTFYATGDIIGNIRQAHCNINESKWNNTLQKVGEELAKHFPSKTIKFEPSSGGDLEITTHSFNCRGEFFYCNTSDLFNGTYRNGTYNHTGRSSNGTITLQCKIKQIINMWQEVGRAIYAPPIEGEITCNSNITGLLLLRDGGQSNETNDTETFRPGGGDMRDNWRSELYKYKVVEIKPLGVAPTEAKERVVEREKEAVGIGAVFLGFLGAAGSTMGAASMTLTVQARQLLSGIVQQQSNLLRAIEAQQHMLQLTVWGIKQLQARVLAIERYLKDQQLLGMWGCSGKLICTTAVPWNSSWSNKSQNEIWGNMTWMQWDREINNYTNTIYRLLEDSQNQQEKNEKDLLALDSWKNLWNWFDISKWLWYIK

The next test deals with T2, B.62357 gp140C.
T2 construct: also called B.62357 140C

A further test addresses B.con gp140CF.
The target of a further test is T3, AE.con gp140CF.
T3 chain: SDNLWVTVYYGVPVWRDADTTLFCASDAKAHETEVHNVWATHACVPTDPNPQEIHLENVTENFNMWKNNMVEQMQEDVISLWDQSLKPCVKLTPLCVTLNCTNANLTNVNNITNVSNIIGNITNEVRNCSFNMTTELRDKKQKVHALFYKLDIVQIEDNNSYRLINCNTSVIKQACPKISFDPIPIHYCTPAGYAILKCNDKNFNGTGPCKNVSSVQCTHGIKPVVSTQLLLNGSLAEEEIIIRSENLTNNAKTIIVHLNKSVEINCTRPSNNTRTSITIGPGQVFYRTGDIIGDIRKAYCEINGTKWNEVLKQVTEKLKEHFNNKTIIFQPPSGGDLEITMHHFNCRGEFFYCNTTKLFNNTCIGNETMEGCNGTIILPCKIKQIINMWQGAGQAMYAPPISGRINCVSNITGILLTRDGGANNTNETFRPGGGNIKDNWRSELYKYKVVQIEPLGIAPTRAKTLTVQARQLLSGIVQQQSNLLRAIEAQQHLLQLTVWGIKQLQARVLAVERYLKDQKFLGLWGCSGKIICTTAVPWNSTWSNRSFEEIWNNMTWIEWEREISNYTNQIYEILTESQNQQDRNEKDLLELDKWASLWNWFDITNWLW

The target of a further test is B.040 gp140C.

B1: CH58 (antibody, V domains shown)
VH: EVQLVQSGAEVKKPGESLKISCKGSGYRFTSYWIVWVRQMPGKGLEWMGIIYPGDFDTKYSPSFQGQVTISADKSISTAYLQWSSLKASDTAMYYCARLGGRYYHDSSGYYYLDYWGQGTLVTVSS
VL: NFMLTQPHSVSESPGKTVTISCTRSSGSVASDYVQWYQQRPGSAPTTVVYEDNQRPSGVPDRFSGSIDSSSNSASLTISGLKTEDEADYYCQSYDNSSWVFGGGTKLTVL
Turning to B1, the binding result with C.1086 gp140 was “binds”; in the test with B.62357 gp140C, “no binding (tested: 10 ug/ml)”; in the test with B.con gp140CF, “no binding (tested: 10 ug/ml)”; in the test with AE.con gp140CF, “binds”; in the test with B.040 gp140C, “no binding (tested: 10 ug/ml)”.
